Holding throughout (format): cell-based
One series concerns HSV-2. In words: HSV-2 inhibition (dose response) plaque assay on Vero cells. The conditions noted are these: CC50 Vero / EC50 HSV-2.
In a further series the test system is SARS-CoV-2 (Alpha). In words: SARS-CoV-2 (alpha strain) inhibition plaque assay on Vero E6 cells. As to conditions: CC50 Vero E6 / EC50.
In a further series the test system is SARS-CoV-2 (Omicron). In words: SARS-CoV-2 Omicron dose-response assay on Vero E6 cells. As to conditions: CC50 Vero E6 / EC50.

A value given as a limit tells only on which side of the number the result lay.

Results on 13 compounds are retold here after paper PMC11117723, “Benzene with Alkyl Chains Is a Universal Scaffold for Multivalent Virucidal Antivirals” (ACS Central Science, 2024).

Regarding `CCc1c(CSCCCCCCCCCOS(=O)(=O)O)c(CC)c(CSCCCCCCCCCOS(=O)(=O)O)c(CC)c1CSCCCCCCCCCOS(=O)(=O)O` [BET3C9S], the “SI (HSV-2)” value in the series with HSV-2 worked out at 6. For the same compound, the “SI (SARS-CoV-2 Alpha)” value in the series on SARS-CoV-2 (Alpha) stood at 15.

As for `O=S(=O)(O)OCCCCCCCCCSCC(CSCCCCCCCCCOS(=O)(=O)O)(CSCCCCCCCCCOS(=O)(=O)O)CSCCCCCCCCCOS(=O)(=O)O` [P4C9S], the “SI (HSV-2)” value in the series with HSV-2 is listed as 29. Besides, in the series on SARS-CoV-2 (Alpha), the “SI (SARS-CoV-2 Alpha)” value amounted to 8. In the case of `O=S(=O)(O)OCCCCCCCCCSCC(COS(=O)(=O)O)(CSCCCCCCCCCOS(=O)(=O)O)CSCCCCCCCCCOS(=O)(=O)O` [P3C9S], in the series on HSV-2, the “SI (HSV-2)” value worked out at 21. Further, in the series on SARS-CoV-2 (Alpha), the “SI (SARS-CoV-2 Alpha)” value turned out to be 40. `O=S(=O)(O)OCCCCCCCCCSCc1cc(CSCCCCCCCCCOS(=O)(=O)O)cc(CSCCCCCCCCCOS(=O)(=O)O)c1` [B3C9S]: the “SI (HSV-2)” value with HSV-2 is 42. Moreover, the “SI (SARS-CoV-2 Alpha)” value in the series on SARS-CoV-2 (Alpha) is reported as 13. The “SI (SARS-CoV-2 Omicron)” value in the series with SARS-CoV-2 (Omicron) came out at 11. Consider `O=S(=O)(O)OCCCCCCSCc1cc(CSCCCCCCOS(=O)(=O)O)cc(CSCCCCCCOS(=O)(=O)O)c1` [B3C6S], for which, in the series on HSV-2, the “SI (HSV-2)” value is above 7. Also, in the series on SARS-CoV-2 (Alpha), the “SI (SARS-CoV-2 Alpha)” value is on record as above 2.7.

Take `O=c1n(CCSCCCCCCCCCOS(=O)(=O)O)c(=O)n(CCSCCCCCCCCCOS(=O)(=O)O)c(=O)n1CCSCCCCCCCCCOS(=O)(=O)O` [A3C9S]: in the series with HSV-2, the “SI (HSV-2)” value amounted to 11. In the series with SARS-CoV-2 (Alpha), the “SI (SARS-CoV-2 Alpha)” value amounted to 2. Taken in the same sequence, the figures for `O=S(=O)(O)OCCCCCCCCCSCc1cccc(CSCCCCCCCCCOS(=O)(=O)O)c1CSCCCCCCCCCOS(=O)(=O)O` [OB3C9S] were 8 and 13. As for `O=S(=O)(O)OCCCCCCCCCCCSCc1c(CSCCCCCCCCCCCOS(=O)(=O)O)c(CSCCCCCCCCCCCOS(=O)(=O)O)c(CSCCCCCCCCCCCOS(=O)(=O)O)c(CSCCCCCCCCCCCOS(=O)(=O)O)c1CSCCCCCCCCCCCOS(=O)(=O)O` [B6C11S], the “SI (HSV-2)” value in the series with HSV-2 is on record as 77. In addition, the “SI (SARS-CoV-2 Alpha)” value in the series with SARS-CoV-2 (Alpha) came to 73. Besides, the “SI (SARS-CoV-2 Omicron)” value in the series with SARS-CoV-2 (Omicron) was determined as 15.

Regarding `CCc1c(CSCCCCCCOS(=O)(=O)O)c(CC)c(CSCCCCCCOS(=O)(=O)O)c(CC)c1CSCCCCCCOS(=O)(=O)O` [BET3C6S], the “SI (HSV-2)” value in the series on HSV-2 is above 17. Turning to `O=S(=O)(O)OCCCCCCCCCCO[C@H]1[C@H](OS(=O)(=O)O)[C@H](OCCCCCCCCCCOS(=O)(=O)O)[C@H](OS(=O)(=O)O)[C@@H](OCCCCCCCCCCOS(=O)(=O)O)[C@@H]1OS(=O)(=O)O` [I3C10S], the “SI (HSV-2)” value in the series on HSV-2 is listed as above 2. Take `O=S(=O)(O)OCCCCCCCCCCCSCc1cc(CSCCCCCCCCCCCOS(=O)(=O)O)cc(CSCCCCCCCCCCCOS(=O)(=O)O)c1` [B3C11S]: the “SI (HSV-2)” value with HSV-2 came out at 15. The “SI (SARS-CoV-2 Alpha)” value in the series with SARS-CoV-2 (Alpha) was 13. In the case of `O=S(=O)(O)OCCCCCCCCCCn1cc(COc2cc(OCc3cn(CCCCCCCCCCOS(=O)(=O)O)nn3)cc(OCc3cn(CCCCCCCCCCOS(=O)(=O)O)nn3)c2)nn1` [BTA3C10S], the “SI (HSV-2)” value with HSV-2 is recorded as above 22. As to `O=S(=O)(O)OCCCCCCCCCSCc1c(CSCCCCCCCCCOS(=O)(=O)O)c(CSCCCCCCCCCOS(=O)(=O)O)c(CSCCCCCCCCCOS(=O)(=O)O)c(CSCCCCCCCCCOS(=O)(=O)O)c1CSCCCCCCCCCOS(=O)(=O)O` [B6C9S], the “SI (HSV-2)” value in the series with HSV-2 turned out to be 3. Further, the “SI (SARS-CoV-2 Alpha)” value with SARS-CoV-2 (Alpha) worked out at 9.
